Data from PMC2910439, “Imperatoxin A, a Cell-Penetrating Peptide from Scorpion Venom, as a Probe of Ca^2+-Release Channels/Ryanodine Receptors” (Pharmaceuticals, 2010).
Starred links: 1 amine or outer side, 2 acyl side, 3 side chain; linkers in the order of their positions; H or OH if unused. Positions of bridges follow the written chain, without caps; N, C: chain ends. Non-standard residues stand in square brackets, D forms with d. Residues, ends and D or L forms follow the SMILES beside them. *: point of attachment. X1 = CC1CC(C)(C)Nc2c1cc1c(c2S(=O)(=O)O)Oc2c(S(=O)(=O)O)c3c(cc2=C1c1c(Cl)c(SCC(=O)*)c(Cl)c(Cl)c1C(=O)O)C(C)CC(C)(C)N=3; X2 = N=C(CCCSC1CC(=O)N(CCCCCN[*:1])C1=O)NCC(=O)[*:2]

Test system: intact mouse ventricular myocytes
Type: cell-based
Details: confocal; for distribution of fluorescence in perfused cells: 1 μM perfusion
Procedure: To visualize the cell-penetrating properties of Alexa-IpTxa in intact cells, ventricular cardiomyocytes were enzymatically isolated and incubated with 5 μM Alexa-IpTxa and Alexa 488-Wheat Germ Agglutinin (10 μg/mL) for 30 min at room temperature (see Experimental Methods). The distribution of Alexa-546-IpTxa (red fluorescence) and WAG-Alexa-488 (green fluorescence) were monitored in living, unfixed cardiac myocytes.
We next sought to establish a time-course for the translocation of Alexa-IpTxa across the plasma membrane of intact cardiomyocytes. […] Clear intracellular localization of fluorescence is seen only with Alexa-IpTxa, as early as 10 min after incubation (panel D), but more intensely after 20 min incubation (panel F). In order to refine the time-course of Alexa-IpTxa penetration into cardiomyocytes, we continuously monitored the evolution of fluorescence in 3 regions of interest (ROI) corresponding to the plasma membrane and adjacent cytosol (ROI-1), the bulk cytosol (ROI-2), and the nucleus (ROI-3). A fourth ROI (not shown) was defined to monitor changes in fluorescence of the bath solution. Animations of IpTxa translocation into cells are available online as supplementary data (URL: http://www.mdpi.com/1424-8247/3/4/1093/S1).
Isolated cardiac myocytes were incubated with Alexa-546-IpTxa (5 μM) with or without WGA-Alexa 488 (10 μg/mL) for 30 min in the dark. Images were acquired with a BioRad MR-1 confocal microscope coupled to a Nikon Disphot microscope and an X60 oil immersion objective using the Lasersharp 2000 software. Confocal images are 0.25 μm sections. All experiments were performed at room temperature.
Ventricular myocytes were imaged with a Zeiss META 5 confocal microscope equipped with laser scanning. Three regions of interest were delineated corresponding to the plasma membrane (ROI-1), […]. Changes in fluorescence intensity in these regions were monitored and analyzed. Alexa-546-IpTxa fluorescence was excited with the 488 nm line of an argon laser, and emitted light was filtered by a LP 585 filter. […]

SMILES	distribution of fluorescence in perfused cells	intracellular localization of fluorescence (5 μM, 30 min at room temperature, living unfixed myocytes, co-stained with Alexa 488-WGA 10 μg/mL)
CC1CC(C)(C)Nc2c1cc1c(c2S(=O)(=O)O)Oc2c(S(=O)(=O)O)c3c(cc2=C1c1c(Cl)c(SCC(=O)NCCCCCN2C(=O)C=CC2=O)c(Cl)c(Cl)c1C(=O)O)C(C)CC(C)(C)N=3 (stereo not drawn) [Alexa-maleimide, Alexa-Fluor-546-C5-maleimide, reference compound]	only labeling of the membrane	
CC(C)C[C@@H]1NC(=O)[C@H](Cc2c[nH]cn2)NC(=O)[C@@H]2CCCN2C(=O)[C@H](CC(C)C)NC(=O)[C@@H](NC(=O)[C@H](CC(=O)O)NC(=O)CNC(=N)CCCSC2CC(=O)N(CCCCCNC(=O)CSc3c(Cl)c(Cl)c(C(=O)O)c(C4=c5cc6c(c(S(=O)(=O)O)c5Oc5c4cc4c(c5S(=O)(=O)O)NC(C)(C)CC4C)=NC(C)(C)CC6C)c3Cl)C2=O)CSSC[C@@H]2NC(=O)[C@@H]3CSSC[C@@H](C(=O)N[C@@H](CCCNC(=N)N)C(=O)O)NC(=O)[C@H](CCCNC(=N)N)NC(=O)[C@H](CCCCN)NC(=O)[C@H](CCC(=O)O)NC(=O)[C@H](C)NC(=O)[C@H](CC(N)=O)NC(=O)[C@H]([C@@H](C)O)NC(=O)CNC(=O)[C@H](CCCNC(=N)N)NC(=O)[C@H](CCCNC(=N)N)NC(=O)[C@H](CCCCN)NC(=O)[C@H](CSSC[C@H](NC(=O)[C@H](CCCNC(=N)N)NC(=O)[C@H](CCCCN)NC1=O)C(=O)N[C@@H](CCCCN)C(=O)N[C@@H](C)C(=O)N[C@@H](CC(=O)O)C(=O)N[C@@H](CC(N)=O)C(=O)N[C@@H](CC(=O)O)C(=O)N3)NC(=O)[C@H](CCCCN)NC(=O)[C@H](CCCCN)NC(=O)CNC2=O (stereo partly drawn) [Alexa-IpTxa] (X1-[X2]DCLPHLKRCKADNDCCGKKCKRRGTNAEKRCR-OH; disulfide 3-17, 10-21, 16-32; C-terminus assumed)	fluorescence intensity was greater in all cellular compartments than that observed in the bath	localizes in the sarcoplasm of the cell
